Measured values from several laboratories, pooled; numbers as filed in NIAID ChemDB.

All rows: tests on isolated targets; agent: HIV-1; protein: Protease; method: HPLC; measure: IC50

Blank or dashed fields: not listed here.

| structure | setting | strain | value |
|---|---|---|---|
| C=C1C[C@]2(C)C(CC(=O)C3[C@@H]([C@@]4(C)CCCC(C)(C)O4)CC[C@]32C)[C@@]2(C)CCC(=O)C(C)(C)C12 | - | - | >218 µM |
| CC(C)[C@H](NC(=O)c1nc2ccccc2[nH]1)C(=O)N[C@@H](Cc1ccccc1)[C@H](O)CNC[C@@H](O)[C@H](Cc1ccccc1)NC(=O)OC(C)(C)C | pH 5.5 | - | <10 µM |
| NC(N)=NCCC[C@H](NC(=O)OCC1c2ccccc2-c2ccccc21)C(=O)O | - | - | 580 µM |
| C=C1C[C@]2(C)C(C/C(=C\O)C3[C@@H]([C@@]4(C)CCCC(C)(C)O4)CC[C@]32C)[C@@]2(C)C/C(=C(/O)C(=O)O)C(C)(C)C12 | - | - | 10 µM |
| O=C(N[C@@H](Cc1ccccc1)C(=O)NCC[C@@H](CO)NC(=O)[C@H](Cc1ccccc1)NC(=O)c1ccccn1)c1ccccn1 | - | - | 3.9 µM |
| COc1c(O)cc([C@H]2Oc3cc(O)cc(O[C@@H]4O[C@H](CO)[C@@H](O)[C@H](O)[C@H]4O)c3C[C@H]2O)cc1O | - | IIIB | <100 µg/mL |
| Cc1ccc(S(=O)(=O)NC(N)=NCCC[C@@H](CO)NC(=O)OCC2c3ccccc3-c3ccccc32)cc1 | - | - | 9 µM |
| CC(C)(C)OC(=O)N[C@@H](Cc1ccccc1)[C@H](O)CNC[C@@H](O)[C@H](Cc1ccccc1)NC(=O)OC(C)(C)CCCNC(=O)OCc1ccccc1 | pH 5.5 | - | <10 µM |
| CC(C)c1ccccc1Sc1c(O)cc(-c2ccc(OCN3CCOCC3)cc2)oc1=O | pH 4.7 | - | 0.547 µM |
| O=C(N[C@@H](Cc1ccccc1)C(=O)NCC[C@@H](CO)NC(=O)[C@H](Cc1ccccc1)NC(=O)OCc1ccccc1)OCc1ccccc1 | - | - | 1.8 µM |
| CC(C)(C)OC(=O)N[C@@H](Cc1ccccc1)[C@H](O)CNC[C@@H](O)[C@H](Cc1ccccc1)NC(=O)OC(C)(C)C#CCCc1ccccc1 | pH 5.5 | - | <10 µM |
| CC(C)(C)c1ccccc1Sc1c(O)cc(-c2ccc(OCc3cccnc3)cc2)oc1=O | pH 6.2 | - | 0.32 µM |
| Cc1ccc(S(=O)(=O)NC(N)=NCCC[C@H](NC(=O)CC23CC4CC(CC(C4)C2)C3)C(=O)O)cc1 | - | - | 54 µM |
| CC(C)c1ccccc1Sc1c(O)cc(-c2ccc(OCC3CCCCC3)cc2)oc1=O | pH 4.7 | - | 9.9 µM |
| O=C(N[C@@H](Cc1ccccc1)C(=O)NCC[C@@H](CO)NC(=O)[C@H](Cc1ccccc1)NC(=O)c1cc2ccccc2[nH]1)c1cc2ccccc2[nH]1 | - | - | 2.9 µM |
| CC(C)(C)OC(=O)N[C@@H](Cc1ccccc1)[C@H](O)CN(C[C@@H](O)[C@H](Cc1ccccc1)NC(=O)OC(C)(C)CO)C(=O)OCC[Si](C)(C)C | pH 5.5 | - | <10 µM |
| Cc1cc(C)c(S(=O)(=O)NC(N)=NCCC[C@H](NC(=O)OCC2c3ccccc3-c3ccccc32)C(=O)O)c(C)c1 | - | - | 70 µM |
| CC(C)(C)CCN[C@@H](Cc1ccccc1)[C@H](O)CNC[C@@H](O)[C@H](Cc1ccccc1)NC(=O)OC(C)(C)C | pH 5.5 | - | >10 µM |
| COC(=O)CCCC(=O)O[C@H]1CC[C@@]2(C)C(CC[C@]3(C)C2CC=C2C4CC(C)(C)CC[C@]4(C(=O)OC)CC[C@]23C)C1(C)C | - | - | >50 µM |
| CC(C)(C)NC(=S)N[C@@H](Cc1ccccc1)[C@H](O)CNC[C@@H](O)[C@H](Cc1ccccc1)NC(=O)OC(C)(C)C | pH 5.5 | - | <10 µM |
| COc1c(O)cc([C@H]2Oc3c(c(O)cc(O)c3C3c4c(O)cc(O)cc4O[C@H](c4ccc(O)c(O)c4)[C@@H]3O)C[C@H]2O)cc1O | - | IIIB | >100 µg/mL |
| C=C(C)[C@@H]1CC[C@]2(C(=O)O)CC[C@]3(C)[C@H](CC[C@@H]4[C@@]5(C)CC[C@H](OC(=O)CC(C)(C)CC(=O)O)C(C)(C)[C@@H]5CC[C@]43C)[C@@H]12 | - | - | 4 µM |
| COc1c(O)cc([C@H]2Oc3cc(O)cc(O)c3C[C@@H]2O)cc1O[C@@H]1O[C@H](CO)[C@@H](O)[C@H](O)[C@H]1O | - | IIIB | <100 µg/mL |
| C=C1C[C@]2(C)C(C[C@@H](O)C3[C@@H]([C@@]4(C)CCCC(C)(C)O4)CC[C@]32C)[C@@]2(C)CC[C@H](O)C(C)(C)C12 | - | - | >217.1 µM |
| CC(C)c1ccccc1Sc1c(O)cc(-c2ccc(OCn3cnnn3)cc2)oc1=O | pH 4.7 | - | 0.036 µM |
| CC(O)[C@H](NC(=O)OCc1ccccc1)C(=O)N[C@@H](Cc1ccccc1)[C@H](O)CNC[C@@H](O)[C@H](Cc1ccccc1)NC(=O)OC(C)(C)C | pH 5.5 | - | <10 µM |
| Cc1ccc(S(=O)(=O)NC(N)=NCCC[C@H](NC(=O)C(c2ccccc2)c2ccccc2)C(=O)O)cc1 | - | - | 45 µM |
| C[C@@H]1CC[C@]2(C(=O)O)CC[C@]3(C)C(=CCC4[C@@]5(C)CC[C@H](OC(=O)CC(=O)O)C(C)(C)C5CC[C@]43C)C2[C@H]1C | - | - | 6 µM |
| Cc1ccc(S(=O)(=O)NC(N)=NCCC[C@H](NC(=O)OCC2c3ccccc3-c3ccccc32)C(=O)O)cc1 | - | - | 5 µM |
| O=C(N[C@@H](Cc1ccccc1)C(=O)NC[C@@H](CO)NC(=O)[C@H](Cc1ccccc1)NC(=O)OCC1c2ccccc2-c2ccccc21)OCC1c2ccccc2-c2ccccc21 | - | - | 0.43 µM |
| Oc1cc(O)c2c(c1)O[C@H](c1ccc(O)c(O)c1)[C@H](O)[C@H]2c1c(O)cc(O)c2c1O[C@H](c1ccc(O)c(O)c1)[C@H](O)C2 | - | IIIB | <100 µg/mL |
| C[C@H]1[C@H](C)CC[C@]2(C(=O)O)CC[C@]3(C)C(=CC[C@@H]4[C@@]5(C)CC[C@H](OC(=O)C(=O)O)C(C)(C)[C@@H]5CC[C@]43C)[C@H]12 | - | - | 7 µM |
| Cc1ccc(S(=O)(=O)NC(N)=NCCC[C@@H](NC(=O)OCC2c3ccccc3-c3ccccc32)C(=O)O)cc1 | - | - | >100 µM |
| CCOC(=O)COc1ccc(-c2cc(O)c(Sc3ccccc3C(C)C)c(=O)o2)cc1 | pH 4.7 | - | 0.067 µM |
| C=C(C)[C@@H]1CC[C@]2(C(=O)O)CC[C@]3(C)[C@H](CC[C@@H]4[C@@]5(C)CC[C@H](OC(=O)CCCC(=O)O)C(C)(C)[C@@H]5CC[C@]43C)[C@@H]12 | - | - | 4 µM |

For reference, 4 entries again:

structure	setting	strain	value
Cc1ccc(S(=O)(=O)NC(N)=NCCC[C@H](NC(=O)OCC2c3ccccc3-c3ccccc32)C(=O)O)cc1	-	-	5 µM
C=C1C[C@]2(C)C(CC(=O)C3[C@@H]([C@@]4(C)CCCC(C)(C)O4)CC[C@]32C)[C@@]2(C)CCC(=O)C(C)(C)C12	-	-	>218 µM
O=C(N[C@@H](Cc1ccccc1)C(=O)NCC[C@@H](CO)NC(=O)[C@H](Cc1ccccc1)NC(=O)c1cc2ccccc2[nH]1)c1cc2ccccc2[nH]1	-	-	2.9 µM
CC(C)[C@H](NC(=O)c1nc2ccccc2[nH]1)C(=O)N[C@@H](Cc1ccccc1)[C@H](O)CNC[C@@H](O)[C@H](Cc1ccccc1)NC(=O)OC(C)(C)C	pH 5.5	-	<10 µM

Neighbouring rows are from separate reports. ICn is the concentration giving n% inhibition.